Data as given in patent publication US4346087A, “Antibacterial surface active agent containing azaalkenelactam” (priority 1979, dated 1982).

Key:
[1] = Metal corrosion inhibition in brake fluid A, tin-plate; details: 100°±2° C., 120±2 hours, blank -0.15
[2] = Metal corrosion inhibition in brake fluid A, aluminum; details: 100°±2° C., 120±2 hours, blank +0.07
[3] = Metal corrosion inhibition in brake fluid A, cast iron; details: 100°±2° C., 120±2 hours, blank -0.14
[4] = Metal corrosion inhibition in brake fluid A, steel; details: 100°±2° C., 120±2 hours, blank -0.20
[5] = Metal corrosion inhibition in brake fluid A, brass; details: 100°±2° C., 120±2 hours, blank -0.20
[6] = Metal corrosion inhibition in brake fluid A, copper; details: 100°±2° C., 120±2 hours, blank +0.18
[7] = Table 4, azaalkenelactams […] by weight in brake fluid A
[8] = Table 5, carboxylate derivatives […] by weight in brake fluid A

Molecule: CCCCCCCCCCCC(=O)OCCN1CCN=CC(C)C1=O (stereo not drawn) [Example 47, 4-lauroyloxyethyl-6-methyl-3,6-dihydro-2H-1,4-diazepin-5-one]
- Weight change, tin-plate [1, 7]: -0.01 mg/cm^2
- Weight change, aluminum [2, 7]: +0.01 mg/cm^2
- Weight change, cast iron [3, 7]: -0.02 mg/cm^2
- Weight change, steel [4, 7]: 0 mg/cm^2
- Weight change, brass [5, 7]: -0.02 mg/cm^2
- Weight change, copper [6, 7]: +0.02 mg/cm^2

Molecule: CCCCCCCC(=O)OCCN1CCN=C(C)CC1=O [Example 24, 4-octoyloxyethyl-7-methyl-3,6-dihydro-2H-1,4-diazepin-5-one]
- Weight change, tin-plate [1, 7]: -0.01 mg/cm^2
- Weight change, aluminum [2, 7]: +0.01 mg/cm^2
- Weight change, cast iron [3, 7]: 0 mg/cm^2
- Weight change, steel [4, 7]: -0.01 mg/cm^2
- Weight change, brass [5, 7]: -0.02 mg/cm^2
- Weight change, copper [6, 7]: +0.01 mg/cm^2

Molecule: CCCCCCCCCc1ccc(OCC(O)CNCCNCCNCCN2CC[N+](CC(=O)[O-])=CC(C)C2=O)cc1 (stereo not drawn) [4-nonylphenoxy(2-hydroxy)propylaminoethylaminoethylaminoethyl-6-methyl-1-azonia-4-azacyclohept-7-en-5-one-1-acetate]
- Weight change, tin-plate [1, 8]: -0.02 mg/cm^2
- Weight change, aluminum [2, 8]: +0.02 mg/cm^2
- Weight change, cast iron [3, 8]: 0 mg/cm^2
- Weight change, steel [4, 8]: -0.03 mg/cm^2
- Weight change, brass [5, 8]: -0.01 mg/cm^2
- Weight change, copper [6, 8]: -0.01 mg/cm^2

Molecule: CC1=NCCN(CC(C)OCC(C)OCC(C)OCc2ccc(C)cc2)C(=O)C1 (stereo not drawn) [Example 39, 4-methylbenzylpoly(2moles)oxypropyleneoxypropyl-7-methyl-3,6-dihydro-2H-1,4-diazepin-5-one]
- Weight change, tin-plate [1, 7]: 0 mg/cm^2
- Weight change, aluminum [2, 7]: +0.02 mg/cm^2
- Weight change, cast iron [3, 7]: -0.01 mg/cm^2
- Weight change, steel [4, 7]: -0.01 mg/cm^2
- Weight change, brass [5, 7]: -0.02 mg/cm^2
- Weight change, copper [6, 7]: +0.02 mg/cm^2

Molecule: CCCCCCCCCc1ccc(OCC(O)CNCCNCCNCCN2CC[N+](CC(=O)[O-])=C(C)CC2=O)cc1 (stereo not drawn) [4-nonylphenoxy(2-hydroxy)propylaminoethylaminoethylaminoethyl-7-methyl-1-azonia-4-azacyclohept-7-en-5-one-1-acetate]
- Weight change, tin-plate [1, 8]: -0.03 mg/cm^2
- Weight change, aluminum [2, 8]: +0.02 mg/cm^2
- Weight change, cast iron [3, 8]: -0.02 mg/cm^2
- Weight change, steel [4, 8]: -0.02 mg/cm^2
- Weight change, brass [5, 8]: -0.01 mg/cm^2
- Weight change, copper [6, 8]: +0.01 mg/cm^2

Molecule: CCCCCCCCC=CCCCCCCCCN1CCN=CCCC1=O [Example 55, 4-(9-octadecenyl)-2,3,6,7-tetrahydro-1,4-diazocin-5-one]
- Weight change, tin-plate [1, 7]: 0 mg/cm^2
- Weight change, aluminum [2, 7]: +0.02 mg/cm^2
- Weight change, cast iron [3, 7]: -0.02 mg/cm^2
- Weight change, steel [4, 7]: -0.01 mg/cm^2
- Weight change, brass [5, 7]: -0.01 mg/cm^2
- Weight change, copper [6, 7]: +0.01 mg/cm^2

Molecule: CCCCCCCCC=CCCCCCCCCN1CCC[N+](CC(=O)[O-])=C(C)CC1=O [1-(9-octadecenyl)-4-methyl-1-aza-5-azoniacyclooct-4-en-2-one-5-acetate]
- Weight change, tin-plate [1, 8]: -0.01 mg/cm^2
- Weight change, aluminum [2, 8]: +0.01 mg/cm^2
- Weight change, cast iron [3, 8]: -0.03 mg/cm^2
- Weight change, steel [4, 8]: -0.03 mg/cm^2
- Weight change, brass [5, 8]: 0 mg/cm^2
- Weight change, copper [6, 8]: 0 mg/cm^2

Molecule: CCCCCCCCCCCC[N+](C)(C)CC(=O)[O-] [Lauryldimethylbetaine, lauryldimethylbetaine, reference compound]
- Weight change, tin-plate [1, 8]: -0.10 mg/cm^2
- Weight change, aluminum [2, 8]: +0.09 mg/cm^2
- Weight change, cast iron [3, 8]: -0.15 mg/cm^2
- Weight change, steel [4, 8]: -0.19 mg/cm^2
- Weight change, brass [5, 8]: -0.23 mg/cm^2
- Weight change, copper [6, 8]: -0.15 mg/cm^2

Molecule: CCCCCCCCCCCCCCC(O)CNCCN1CCCN=CC(C)C1=O (stereo not drawn) [Example 49, 1-(2-hydroxyhexadecyl)aminoethyl-3-methyl-3,6,7,8-tetrahydro-1,5-diazocin-2-one]
- Weight change, tin-plate [1, 7]: 0 mg/cm^2
- Weight change, aluminum [2, 7]: 0 mg/cm^2
- Weight change, cast iron [3, 7]: -0.01 mg/cm^2
- Weight change, steel [4, 7]: -0.01 mg/cm^2
- Weight change, brass [5, 7]: -0.01 mg/cm^2
- Weight change, copper [6, 7]: +0.01 mg/cm^2

Molecule: CCCCCCCCCCC(O)CN1CC[N+](CC(=O)[O-])=C(C)CC1=O (stereo not drawn) [4-(2-hydroxy)dodecyl-7-methyl-1-azonia-4-azacyclohept-7-en-5-one-1-acetate]
- Weight change, tin-plate [1, 8]: -0.01 mg/cm^2
- Weight change, aluminum [2, 8]: +0.01 mg/cm^2
- Weight change, cast iron [3, 8]: -0.02 mg/cm^2
- Weight change, steel [4, 8]: -0.03 mg/cm^2
- Weight change, brass [5, 8]: -0.01 mg/cm^2
- Weight change, copper [6, 8]: -0.02 mg/cm^2

Molecule: CCCCCC[C@@H](O)C/C=C\CCCCCCCC(=O)NCCN1CC[N+](CC(=O)[O-])=CC(C)(C)C1=O [4-ricinolamidoethyl-6,6-dimethyl-1-azonia-4-azacyclohept-7-en-5-one-1-acetate]
- Weight change, tin-plate [1, 8]: -0.02 mg/cm^2
- Weight change, aluminum [2, 8]: +0.02 mg/cm^2
- Weight change, cast iron [3, 8]: -0.03 mg/cm^2
- Weight change, steel [4, 8]: -0.01 mg/cm^2
- Weight change, brass [5, 8]: -0.02 mg/cm^2
- Weight change, copper [6, 8]: -0.02 mg/cm^2

Molecule: CCCCCCCCCCCCCCCCCCCCC(O)CNCCNCCN1CCCN=C(C)CC1=O (stereo not drawn) [Example 30, 1-(2-hydroxy)docosylaminoethylaminoethyl-4-methyl-3,6,7,8-tetrahydro-1,5-diazocin-2-one]
- Weight change, tin-plate [1, 7]: 0 mg/cm^2
- Weight change, aluminum [2, 7]: +0.01 mg/cm^2
- Weight change, cast iron [3, 7]: -0.02 mg/cm^2
- Weight change, steel [4, 7]: -0.01 mg/cm^2
- Weight change, brass [5, 7]: -0.02 mg/cm^2
- Weight change, copper [6, 7]: +0.02 mg/cm^2

Molecule: CCCCCCCCCCCCCCCCCCCCCC(=O)OCCCN1CCCN=C(C)CC1=O [Example 25, 1-behenoyloxypropyl-4-methyl-3,6,7,8-tetrahydro-1,5-diazocin-2-one]
- Weight change, tin-plate [1, 7]: 0 mg/cm^2
- Weight change, aluminum [2, 7]: 0 mg/cm^2
- Weight change, cast iron [3, 7]: -0.01 mg/cm^2
- Weight change, steel [4, 7]: -0.01 mg/cm^2
- Weight change, brass [5, 7]: -0.03 mg/cm^2
- Weight change, copper [6, 7]: +0.03 mg/cm^2

Molecule: 1-octadecylaminopropyl-4-methyl-1-aza-5-azoniacyclooct-4-en-2-one-5-propionate
- Weight change, tin-plate [1, 8]: -0.02 mg/cm^2
- Weight change, aluminum [2, 8]: +0.02 mg/cm^2
- Weight change, cast iron [3, 8]: -0.02 mg/cm^2
- Weight change, steel [4, 8]: -0.02 mg/cm^2
- Weight change, brass [5, 8]: -0.01 mg/cm^2
- Weight change, copper [6, 8]: 0 mg/cm^2

Molecule: CCCCCCCCCCCCCCC(O)CNCCN1CCC[N+](CC(=O)[O-])=CC(C)(C)C1=O (stereo not drawn) [1-(2-hydroxyhexadecyl)aminoethyl-3,3-dimethyl-1-aza-5-azoniacyclooct-4-en-2-one-5-acetate]
- Weight change, tin-plate [1, 8]: -0.01 mg/cm^2
- Weight change, aluminum [2, 8]: +0.01 mg/cm^2
- Weight change, cast iron [3, 8]: -0.02 mg/cm^2
- Weight change, steel [4, 8]: -0.03 mg/cm^2
- Weight change, brass [5, 8]: 0 mg/cm^2
- Weight change, copper [6, 8]: -0.01 mg/cm^2

Molecule: CCCCCCCCCCC(O)CN1CCN=CC(C)C1=O (stereo not drawn) [Example 43, 4-(2-hydroxy)dodecyl-6-methyl-3,6-dihydro-2H-1,4-diazepin-5-one]
- Weight change, tin-plate [1, 7]: -0.01 mg/cm^2
- Weight change, aluminum [2, 7]: +0.01 mg/cm^2
- Weight change, cast iron [3, 7]: -0.02 mg/cm^2
- Weight change, steel [4, 7]: 0 mg/cm^2
- Weight change, brass [5, 7]: -0.02 mg/cm^2
- Weight change, copper [6, 7]: +0.01 mg/cm^2

Molecule: CCCCCCCC/C=C\CCCCCCCC(=O)NCCN1CC[N+](CC(=O)[O-])=C(C)CC1=O [4-oleamidoethyl-7-methyl-1-azonia-4-azacyclohept-7-en-5-one-1-acetate]
- Weight change, tin-plate [1, 8]: -0.01 mg/cm^2
- Weight change, aluminum [2, 8]: 0 mg/cm^2
- Weight change, cast iron [3, 8]: -0.01 mg/cm^2
- Weight change, steel [4, 8]: -0.01 mg/cm^2
- Weight change, brass [5, 8]: 0 mg/cm^2
- Weight change, copper [6, 8]: 0 mg/cm^2

Molecule: CCCCCCCCCCCCCCC(O)CNCCN1CC[N+](CC(=O)[O-])=CC(C)(C)C1=O (stereo not drawn) [4-(2-hydroxyhexadecyl)aminoethyl-6,6-dimethyl-1-azonia-4-azacyclohept-7-en-5-one-1-acetate]
- Weight change, tin-plate [1, 8]: -0.02 mg/cm^2
- Weight change, aluminum [2, 8]: 0 mg/cm^2
- Weight change, cast iron [3, 8]: -0.01 mg/cm^2
- Weight change, steel [4, 8]: -0.02 mg/cm^2
- Weight change, brass [5, 8]: -0.02 mg/cm^2
- Weight change, copper [6, 8]: -0.02 mg/cm^2

Molecule: CCCCCCCC/C=C\CCCCCCCC(=O)OCCN1CCN=C(C)CC1=O [Example 13, 4-oleoyloxyethyl-7-methyl-3,6-dihydro-2H-1,4-diazepin-5-one]
- Weight change, tin-plate [1, 7]: 0 mg/cm^2
- Weight change, aluminum [2, 7]: +0.03 mg/cm^2
- Weight change, cast iron [3, 7]: -0.03 mg/cm^2
- Weight change, steel [4, 7]: -0.02 mg/cm^2
- Weight change, brass [5, 7]: -0.02 mg/cm^2
- Weight change, copper [6, 7]: +0.01 mg/cm^2

Molecule: CCCCCCCCCCCCOCC(O)CN1CCCN=C(C)CC1=O (stereo not drawn) [Example 33, 1-docoxy(2-hydroxy)propyl-4-methyl-3,6,7,8-tetrahydro-1,5-diazocin-2-one]
- Weight change, tin-plate [1, 7]: -0.01 mg/cm^2
- Weight change, aluminum [2, 7]: +0.01 mg/cm^2
- Weight change, cast iron [3, 7]: -0.01 mg/cm^2
- Weight change, steel [4, 7]: 0 mg/cm^2
- Weight change, brass [5, 7]: -0.02 mg/cm^2
- Weight change, copper [6, 7]: +0.02 mg/cm^2
